Human monoclonal antibodies against the spike receptor-binding domain (heavy:light variable regions). IC50 against pseudoviruses bearing the spike of naturally observed variants; lower = stronger; >10 µg/ml means not reached at the top dose. No active / inactive call. The stated detection limit is 0.0005 µg/ml; values near or below 0.001 µg/ml lie at the floor of the assay.
B1: BD55-6022 (protein)
chain 1: EVQLLESGGGLVQRGGSLRLSCAASGFTFSTFSSYAMNWVRQAPGKGLEWVSSITSSGDGAFYADSVKGRFTISRDNSKNTLYLQMKSLRADDTAVYYCAKDMGGAVLYDVFDVWGQGTMVTV
chain 2: DIQMTQSPSSLSASVGDRVTITCRASQSISRYLNWYQQKPGKAPRLLIYGASSLQSGVPSRFSGSGSGTDFTLTISSLQPEDFATYYCQQSYISPQLTFGGGTRVEIK
B2: BD55-6024 (protein)
chain 1: EVQLVESGGGLVQPGGSLRLSCAASGFTFRNYAMHWVRQAPGKGLEYVSGISRDGGGTFYADSMKGRFTISRDNSKSTLYLHMGSLRAEDMAVYYCAREATVTMDAHFDHWGQGTLVTVSS
chain 2: DIQMTQSPSSLSASVGDRVTITCRASQTISSYLNWYQHKPGKAPKLLIYVASRLQSGVPSRFSGSGSGTDFTLTISNLQAEDFATYYCQQSYITPQLTFGGGTKVEIK
B3: BD55-5997 (protein)
chain 1: QLQLQQWGAGLLRPSETLSLTCGVYGGSFSGYYWSWIRQPPGQGLEWIGEIQHSGDTNYNLSLKSRVTISIDTSKNQLTLKLTSVTAADTAVYYCAREAKATGVTLRRGAFDVWGQGTMVTVSS
chain 2: DIVMTQSPDSLAVSLGERATINCKSSQSVLYFSSDKNYLAWYQHRPGQPPKLLIYWASTRESGVPDRFSGSGSGTDFTLTISNLQAEDVAVYYCQQYYSTPLTFGGGTKVEIK
B4: BD55-6009 (protein)
chain 1: QVQLVQSGAEVKKPGASVKISCKASGYPFTTYYIHWVRQAPGQGLEWMGIINAGGGRAFYAQKFQGRVSMTRDTSTSTVYMELSSLTSEDTAVYFCARDGPIGVVGIDYFDYWGQGTLVTASS
chain 2: DIQMTQSPSSLSASVGDKVTISCRASQTISNYLNWYQQKPGKAPKLLIYAASSLQSGVPSRFSGSGSGTDFTLTINSLQPEDFATYYCQQSYNTPPWTFGQGTKVEIK
B5: BD55-6027 (protein)
chain 1: EVQLVESGGGLVQPGGSLRLSCVASGFTFSSYDVHWVRQPTGKGLEWVSGIDTAGDTYYAGSVKGRFTISRDNAKSSVYLQMNSLRAGDTGVYYCARAYIYHDVLAGLQTYYYGLDVWGHGTTVTVSS
chain 2: DIQMTQSPSSLSASVGDRVTITCRASQGIGNSLAWVQQKPGKAPKSLIYGASSLQSGVPSKFNGSGSGTDFTLTIISLQPEDFATYYCQQYKSFPLTFGGGTKVEIK
B6: BD55-6039 (protein)
chain 1: QVQLVQSGSGLKKPGASVKVSCKASGYTFTNYAMNWVRQAPGQGLEWMGWINTNTGHLTYAQGFTGRFVFSLDTSVSTAYLQISSLKAEDTAVYYCARSPGEGGYSGYDFSGYGMDVWGQGTTVTVSS
chain 2: DIQMTQSPSSLSASVGDRVNITCRASQTTRSNLNWYQQKPGKAPKLLIYTASILQSGVPSRFSGSGSGTDFTLSISSLQPEDFATYYCQQSYSTPRTFGQGTKLEIK
B7: BD55-6038 (protein)
chain 1: EVQLVESGGGLVQPGGSLRLSCAASGFTFSNYDMYWVRQSTGKGLEWLSTIGTAGDTYYPDSVKGRFTISRENAKNSLYLQMNSLRAGDTAVYYCVRGDYDSTGFYSFFDNWGQGTLVTVSS
chain 2: DIQMTQSPSSLSASVGDRVTITCRASQTVTNYLNWYQQKPGKAPKLLIYAASSLQSGVPSRFSGSGSGTDFTLTISSLQPEDFATYYCQQSYSTGGYTFGQGTNLEIK
B8: BD55-6013 (protein)
chain 1: EVQVVESGGGSAQPGGSLRLACAASGFMFSRYAMSWVRQAPGKGLEWVSVFGGAGGHADYSDSVRGRFTVSRDDFKNTLYLQMNSLRVEDTAVYFCVKGPRSNCDYFESWGQGTLVTVSS
chain 2: DIQMTQSPSTLSASVGDRVTVTCRASQSISRWLAWYQQKPGKAPKLLIYDASNLESGVPSRFRGSGSGTEFTLTISSLQPDDFATYYCQQYNSDMYTFGQGTKLEI
B9: BD55-6036 (protein)
chain 1: EVQLVQSGAEMKKPGESLKISCKGSGDSFTRYWIGWVRQMPGKGLEWMGVIYPGDSETRYSPSFQGQVTISADKSISTAYLQWSSLKASDTAMYYCATLLWGMAYGVFDIWGQGTMVTVSS
chain 2: DIVMTQSPDSLAVALGERATINCKSSQSVLYSSTNKNYLAWYQQKPGQPPKLLIYWASTRDSGVPDRFTGSGSGTDFTLTISSLQTEDVAVYYCQEYYSTSYTFGQGTKLEIK
B10: BD55-6026 (protein)
chain 1: QLHESGPGLVKPSETLSLTCTVSGGSISSSNHYWVWIRQPPGKSPEWIGNVYYSGTTYYNPSLKSRVTISVDTSKNQFSLKLSSVSAADSALYYCARGSGCSATSCQMWAGDHYYYYMDVWGKGTTVTVSS
chain 2: EIIMTQSPATLSVSPGERVTLSCRASQSLSGNLAWYQQKPGQAPRLLIYGASTRATGIPARFSGSGSGTEFTLTISSLQSEDFAVYYCQQYNSWLTFGQGTKVETK
B11: BD55-6015 (protein)
chain 1: QVRLVQSGAEVKKPGDSVKISCKASGDAFNMYGFHWVRQAPGQRFEWMGWINGGNGDTGYSQEFQGRVALTRDPSATTAYMELSSLTSADTAVYYCAREAGGYSSGLIGYWFDYWGQGALVSVSS
chain 2: ETVMTQSPATLSVSPGERAILSCRASQSVSRNLAWYQQKPGQAPRLLIHSASTRATGIPARFSGSGSGTEFTLSISSLESEDFAVYYCQQYNDWPPVTFGQGTKVEIK
B12: BD55-6032 (protein)
chain 1: QVQLQESGPGLVKPSETLSLTCTVSGGSISSSYWSWIRQSPGKGLEWVGHISHSGSTNYNPSLKGRVTISVDTSKSQFSLKLRSVTAADTAVYYCARDPGNGFNYDYFDSWGQGTLVTVSS
chain 2: DIQMTQSPSSVSASVGDRVTITCRASQGISNWLAWYQQKPGKAPKLLIYGTSILQNGVPSRFSGSGSETEFTLTISSLQPEDFATYFCHQSSGFPPTFGPGTKVDIK

Tests used:
Test in all cases: pseudovirus neutralization IC50; higher = weaker neutralization
[1] = target: SARS-CoV-2 Omicron BA.1 spike pseudovirus
Procedure: (§1)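 Single-round VSV luciferase pseudovirus mixed with antibody dilutions for 1 h and put on Huh-7 cells for about a day; IC50 from the dose curve.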

[2] = target: SARS-CoV-2 Omicron BA.2 spike pseudovirus
Procedure: as §1

[3] = target: SARS-CoV-2 Omicron BA.2.75 spike pseudovirus
Procedure: as §1

[4] = target: SARS-CoV-2 Omicron BA.5 spike pseudovirus
Procedure: as §1

[5] = target: SARS-CoV-2 Omicron BQ.1.1 spike pseudovirus
Procedure: as §1

[6] = target: SARS-CoV-2 Omicron XBB spike pseudovirus
Procedure: as §1

[7] = target: SARS-CoV-2 early D614G spike pseudovirus
Procedure: as §1

Binder	pseudovirus neutralization IC50 [1]	pseudovirus neutralization IC50 [2]	pseudovirus neutralization IC50 [3]	pseudovirus neutralization IC50 [4]	pseudovirus neutralization IC50 [5]	pseudovirus neutralization IC50 [6]	pseudovirus neutralization IC50 [7]
B1	> 10 µg/mL	> 10 µg/mL	> 10 µg/mL	> 10 µg/mL	> 10 µg/mL	> 10 µg/mL	> 10 µg/mL
B2	> 10 µg/mL	> 10 µg/mL	> 10 µg/mL	> 10 µg/mL	> 10 µg/mL	> 10 µg/mL	> 10 µg/mL
B3	> 10 µg/mL	> 10 µg/mL	> 10 µg/mL	> 10 µg/mL	> 10 µg/mL	> 10 µg/mL	> 10 µg/mL
B4	> 10 µg/mL	> 10 µg/mL	> 10 µg/mL	> 10 µg/mL	> 10 µg/mL	> 10 µg/mL	> 10 µg/mL
B5	> 10 µg/mL	> 10 µg/mL	> 10 µg/mL	> 10 µg/mL	> 10 µg/mL	> 10 µg/mL	> 10 µg/mL
B6	> 10 µg/mL	> 10 µg/mL	> 10 µg/mL	> 10 µg/mL	> 10 µg/mL	> 10 µg/mL	> 10 µg/mL
B7	> 10 µg/mL	> 10 µg/mL	> 10 µg/mL	> 10 µg/mL	> 10 µg/mL	> 10 µg/mL	1.91 µg/mL
B8	> 10 µg/mL	> 10 µg/mL	> 10 µg/mL	> 10 µg/mL	> 10 µg/mL	> 10 µg/mL	> 10 µg/mL
B9	> 10 µg/mL	> 10 µg/mL	> 10 µg/mL	> 10 µg/mL	> 10 µg/mL	> 10 µg/mL	> 10 µg/mL
B10	> 10 µg/mL	> 10 µg/mL	> 10 µg/mL	> 10 µg/mL	> 10 µg/mL	> 10 µg/mL	> 10 µg/mL
B11	> 10 µg/mL	> 10 µg/mL	> 10 µg/mL	> 10 µg/mL	> 10 µg/mL	> 10 µg/mL	0.432 µg/mL
B12	> 10 µg/mL	> 10 µg/mL	> 10 µg/mL	> 10 µg/mL	> 10 µg/mL	> 10 µg/mL	> 10 µg/mL
